The data set relates to genotype 1a H-77 replicon. The experiment in a line: HCV-1a replicon potency in RLuc-1 cells, bioluminescence. The format is cell-based. As to conditions: CC50/EC50, genotype 1a replicon. (In general: In antiviral work, replicon cells carry a viral genome segment that copies itself.)

Take `Nc1nc(NCc2ccccc2)c2cc(-c3ccc(F)cc3)sc2n1` [Example 327, 2-amino-4-N-benzylamino-6-(4-fluorophenyl)-thieno[2,3-d]pyrimidine]: the “HCV-1a Replicon Selectivity Index” value was determined as 0.6.

Take `CCCc1nc2c(N3CCN(C(=O)COc4ccc(Cl)cc4)CC3)nc(N)nc2[nH]1` [Example 397, 1-(4-(2-amino-8-propyl-9H-purin-64)piperazin-1-yl)-2-(4-chlorophenoxy)ethanone]: the “HCV-1a Replicon Selectivity Index” value was more than 39.

The record behind these values is patent US9730944B2, “Antiviral activity of novel bicyclic heterocycles” (priority 2010, dated 2017).
